Anti-infective test results gathered from many reports (values: NIAID ChemDB through PubChem).

Shared fields: growth or infection tests; species: HIV-1

Neighbouring rows are from separate reports. ECn is the concentration giving n% inhibition of infection, replication or growth. An empty or dashed field is not shown.

SMILES	changes	cell line	read-out	strain	read by	result
C=CC1=C(C)C2=NC1=CC1=NC(=CC3=C(C)C(=C([O-])[O-])C(=N3)C(CC(=O)O)=C3NC(=C2)C(C)C3CCC(=O)O)C(CC)=C1C.[Mg+2]		MT-2	EC50	IIIB	cytopathic effect / XTT	64.5 µg/mL
C#CCn1cc(F)c(=O)[nH]c1=O		MT-4	EC50	IIIB	cytopathic effect	>100 µg/mL
Cc1cc(=O)oc(C)c1C(=O)N1C[C@H]2CN(CCC(c3ccccc3)C3CCN(S(C)(=O)=O)CC3)C[C@H]2C1			EC50		cell fusion	0.037 µM
CC(=O)OCCOCn1cc(Cn2cc(I)c(=O)[nH]c2=O)nn1		MT-4	EC50	IIIB	cytopathic effect	>100 µg/mL
CC(C)(C)C(=O)SCCOP(=O)(OCCSC(=O)C(C)(C)C)OC[C@@H]1O[C@H](n2cc(Cl)c(=O)[nH]c2=O)C[C@H]1F		CEM + CEM/O	EC50	IIIB		>50 µM
OC[C@@H]1CC[C@H](n2cnc3c(NC4CC4)cc(Cl)nc32)O1		C8166	EC50	IIIB		200 µM
Nc1ccc(Cl)cc1S(=O)(=O)n1cccc1C(=O)OCC1CC1		MT-4	EC50	IIIB	cytopathic effect / MTT	2.3 µM
Nc1ccnc2c1ncn2[C@H]1CC[C@@H](CO)O1		C8166	EC50	IIIB		500 µM
Cc1ncnc(C)c1C(=O)N1C[C@H]2CN(CCC(c3cccc(F)c3)C3CCN(CC(F)F)CC3)C[C@H]2C1			EC50		cell fusion	0.011 µM
COC(=O)[C@H](C)NP(=O)(OC[C@H]1CC[C@@H](n2cnc3c(N)ncnc32)C1)Oc1ccccc1		MT-4	EC50		cytopathic effect / MTS	18 µM
O=C1c2ccccc2C(=O)N1CC1C2CC3CC(C2)CC1C3		CEM	EC50	IIIB	syncytia	>4 µg/mL
Cc1cc(CS(=O)(=O)N(CC2CCCC2)C[C@@H](O)CN(CCc2ccccc2)C(=O)c2ccccc2)no1		CEM	EC50	IIIB	p24	<1 µM
CCOCn1c2c(c(=O)[nH]c1=O)COC2c1ccccc1		MT-4	EC50	IIIB	cytopathic effect / MTT	32 µM
O=C1NCC2(C(=O)C3C=CC=CC13)C1CC3CC(C1)CC2C3		CEM	EC50	IIIB	syncytia	>20 µg/mL
Cc1ncnc(C)c1C(=O)N1C[C@H]2CN(CCC(c3ccccc3)C3CCN(C(=O)CC(C)C)CC3)C[C@H]2C1			EC50		cell fusion	2.819 µM
COc1ccc(S(=O)(=O)N(CC(C)C)C[C@@H](O)CCN(CCc2ccccc2)C(=O)O[C@H]2CCOC2)cc1		CEM	EC90	IIIB	p24	1 µM
CCOCn1c(Cc2ccccc2)c(C(C)C)c(=O)[nH]c1=O		MT-4	EC50		MTT	0.03 µM
O=C1c2ccccc2C(=O)N1CCCC12CC3CC(CC(C3)C1)C2		CEM	EC50	IIIB	syncytia	>4 µg/mL
CC1=C(CCC(=O)O)c2cc3[nH]c(cc4[nH]c(cc5nc(cc1n2)C(CCC(=O)O)=C5CC(=O)O)c(CCC(=O)O)c4CC(=O)O)c(CCC(=O)O)c3CC(=O)O		MT-2	EC50	IIIB	cytopathic effect / XTT	9.2 µg/mL
O=C(c1ccccc1)N(CCc1ccccc1)C[C@H](O)CN(CC1CCCC1)S(=O)(=O)c1nccs1		CEM	EC90	IIIB	p24	1 µM
CC(=O)OCCOCn1cc(Cn2ccc(=O)[nH]c2=O)nn1		MT-4	EC50	IIIB	cytopathic effect	>100 µg/mL
CC(C)COC(=O)c1cccn1S(=O)(=O)c1cc(Cl)ccc1[N+](=O)[O-]		MT-4	EC50	IIIB	cytopathic effect / MTT	14 µM
CC(C)(C)C(=O)SCCOP(=O)(OCCSC(=O)C(C)(C)C)OC[C@H]1O[C@@H](n2cc(Cl)c(=O)[nH]c2=O)C[C@@H]1F		CEM + CEM/O	EC50	IIIB		2.1 µM
Nc1ncnc2c1ncn2Cc1cn(COCCO)nn1		MT-4	EC50	IIIB	cytopathic effect	>100 µg/mL
C/C=C(\C)C(=O)c1c(O)c2c(c3c(-c4ccccc4)cc(=O)oc13)OC(C)(C)C=C2		CEM + CEM-SS	EC50	RF	cytopathic effect	8 µg/mL
O=C(N[C@@H](Cc1ccccc1)C(=O)C(F)(F)CN(Cc1ccccc1)S(=O)(=O)c1ccccc1)O[C@H]1CCOC1		CEM	EC50	IIIB	p24	<1 µM
Cc1ncnc(C)c1C(=O)N1C[C@H]2CN(CCC(c3ccccc3)C3CCN(S(=O)(=O)C(C)C)CC3)C[C@H]2C1			EC50		cell fusion	0.099 µM
C1=Cc2nc1c(-c1ccccc1)c1ccc([nH]1)c(-c1ccccc1)c1nc(c(-c3ccccc3)c3ccc([nH]3)c2-c2ccccc2)C=C1		MT-2	EC50	IIIB	cytopathic effect / XTT	38.2 µg/mL
Nc1ccn([C@@H]2C[C@H](F)[C@H](CO)O2)c(=O)n1		MT-4	EC50	IIIB		>100 µM
COc1ccc(S(=O)(=O)N(CC(C)C)C[C@@H](O)CCN(CC2CCCC2)S(=O)(=O)CC2NC(=O)NC2=O)cc1		CEM	EC90	IIIB	p24	1 µM
NC(=O)NO		U-937	EC50		RT activity	<200 µM
CNC(=O)c1cc2ncn(-c3ccc(C#N)cc3)c2cc1Oc1c(C)cc(/C=C/C#N)cc1C		TZM-bl	EC50	NL4-3	luciferase	>220 µM
O=C1c2ccccc2C(=O)N1CCC1C2CC3CC(C2)CC1C3		CEM	EC50	IIIB	syncytia	>4 µg/mL
O=C(NC(Cc1ccccc1)C(=O)C(=O)C(=O)N(CC1CCCC1)S(=O)(=O)c1ccccc1)O[C@H]1CCOC1		CEM	EC90	IIIB	p24	1 µM
CC(=O)OCCOCn1cc(Cn2cc(C)c(=O)[nH]c2=O)nn1		MT-4	EC50	IIIB	cytopathic effect	>100 µg/mL
COC(=O)c1cc(N)c(Nc2ccc(C#N)cc2)cc1Oc1c(C)cc(CCC#N)cc1C		TZM-bl	EC50	NL4-3	luciferase	4.32 µM
CNc1cc(Cl)nc2c1ncn2[C@H]1CC[C@@H](CO)O1		C8166	EC50	IIIB		400 µM
O=C(O)c1ccccc1C(=O)NC12CC3CC(C1)CC(C(=O)O)(C3)C2		CEM	EC50	IIIB	syncytia	>100 µg/mL
O=S(=O)(O)c1ccc(-c2c3nc(c(-c4ccc(S(=O)(=O)O)cc4)c4ccc([nH]4)c(-c4ccc(S(=O)(=O)O)cc4)c4nc(c(-c5ccc(S(=O)(=O)O)cc5)c5ccc2[nH]5)C=C4)C=C3)cc1		MT-2	EC50	IIIB	cytopathic effect / XTT	2.2 µg/mL
CCCCOC(=O)c1cccn1S(=O)(=O)c1cc(Cl)ccc1[N+](=O)[O-]		MT-4	EC50	IIIB	cytopathic effect / MTT	>22 µM
Cc1cn([C@H]2C=C[C@@](C)(CO)O2)c(=O)[nH]c1=O		MT-2	EC50	IIIB	cytopathic effect	>100 µM
O=c1[nH]c(=O)n(COCc2ccccc2)c2c1COC2c1ccccc1		MT-4	EC50	IIIB	cytopathic effect / MTT	10 µM
NNC(=O)c1cccn1S(=O)(=O)c1cc(Cl)ccc1[N+](=O)[O-]		MT-4	EC50	IIIB	cytopathic effect / MTT	>200 µM
Cc1ncnc(C)c1C(=O)N1C[C@H]2CN(CCC(c3cc(F)cc(F)c3)C3CCN(CC(F)F)CC3)C[C@H]2C1			EC50		cell fusion	0.019 µM
C[C@H](NP(=O)(OC[C@H]1C=C[C@@H](n2ccc3c(N)ncnc32)C1)Oc1ccccc1)C(=O)OCc1ccccc1		MT-4	EC50		cytopathic effect / MTS	0.175 µM
Cc1ncnc(C)c1C(=O)N1C[C@H]2CN(CCC(c3ccccc3)C3CCN(C(=O)C(C)C)CC3)C[C@H]2C1			EC50		cell fusion	5 µM
O=C1c2cccc([N+](=O)[O-])c2C(=O)N1C1C2CC3CC(C2)CC1C3		CEM	EC50	IIIB	syncytia	>4 µg/mL
O=c1[nH]c(=O)n(Cc2cn(COCCO)nn2)cc1I		MT-4	EC50	IIIB	cytopathic effect	>100 µg/mL
Nc1ncnc2c1ccn2[C@H]1CC[C@@H](CO)C1		MT-4	EC50		cytopathic effect / MTS	>500 µM
CC[C@]1(CO)O[C@@H](n2cnc3c(N)ncnc32)C[C@@H]1O	AZT-R (delta)Env	HOS	EC50		luciferase	>0.869 µM

For reference, 6 entries again:

SMILES | changes | cell line | read-out | strain | read by | result
Nc1ccn([C@@H]2C[C@H](F)[C@H](CO)O2)c(=O)n1 |  | MT-4 | EC50 | IIIB |  | >100 µM
O=C1c2ccccc2C(=O)N1CC1C2CC3CC(C2)CC1C3 |  | CEM | EC50 | IIIB | syncytia | >4 µg/mL
CCCCOC(=O)c1cccn1S(=O)(=O)c1cc(Cl)ccc1[N+](=O)[O-] |  | MT-4 | EC50 | IIIB | cytopathic effect / MTT | >22 µM
O=C(O)c1ccccc1C(=O)NC12CC3CC(C1)CC(C(=O)O)(C3)C2 |  | CEM | EC50 | IIIB | syncytia | >100 µg/mL
CC(C)COC(=O)c1cccn1S(=O)(=O)c1cc(Cl)ccc1[N+](=O)[O-] |  | MT-4 | EC50 | IIIB | cytopathic effect / MTT | 14 µM
O=C1c2ccccc2C(=O)N1CCCC12CC3CC(CC(C3)C1)C2 |  | CEM | EC50 | IIIB | syncytia | >4 µg/mL